Measured values from several laboratories, pooled; numbers as filed in NIAID ChemDB.

All rows: tests in culture; organism: Human herpesvirus 6; endpoint: EC50

Blank or dashed fields: not listed here. Neighbouring rows are from separate reports. ECn is the concentration giving n% inhibition of infection, replication or growth.

SMILES | read by | strain | cells | value
O=C(O)P(=O)(O)O | cytopathic effect | GS | HSB-2 | 8.4 µM
Nc1nc(N)c2ncn(CCOCP(=O)(O)O)c2n1 | cytopathic effect | GS | HSB-2 | 3.3 µg/mL
O=C(O)P(=O)(O)O | cytopathic effect | U1102 (TYPE 6A) | HSB-2 | 63 µM
Nc1nc2c(ncn2CCC(CO)CO)c(=O)[nH]1 | - | - | Human T-lymphoblasts | 72 µM
Nc1ncnc2c1cnn2C[C@@H](CO)OCP(=O)(O)O | antigen / flow cytometry | GS | HSB-2 | >10 µM
Nc1ccn(C[C@@H](CO)OCP(=O)(O)O)c(=O)n1 | antigen | GS | HSB-2 | 3.8 µg/mL
Nc1nc2c(ncn2C[C@]2(CO)C[C@H]2CO)c(=O)[nH]1 | - | - | Human cord blood lymphocytes | 0.65 µM
O=c1[nH]c(=O)n([C@H]2C[C@H](O)[C@@H](CO)O2)cc1C(F)(F)F | cytopathic effect | U1102 (TYPE 6A) | HSB-2 | >20 µM
Nc1ncnc2c1ncn2C[C@H]1COP(=O)(O)CO1 | cytopathic effect | GS | HSB-2 | 42 µM
Nc1ncnc2c1ncn2C[C@@H](CO)OCP(=O)(O)O | antigen | GS | HSB-2 | 2.7 µg/mL
Nc1ncnc2c1ncn2CCOCP(=O)(O)O | cytopathic effect | GS | HSB-2 | 30 µM
Nc1ccn(C[C@@H](CO)OCP(=O)(O)O)c(=O)n1 | cytopathic effect | U1102 (TYPE 6A) | HSB-2 | >42 µM
Nc1ccn(C[C@H]2COP(=O)(O)CO2)c(=O)n1 | antigen / flow cytometry | GS | HSB-2 | 5.6 µM
Nc1ccn(C[C@H]2COP(=O)(O)CO2)c(=O)n1 | cytopathic effect | U1102 (TYPE 6A) | HSB-2 | 38 µM
Nc1ccn(C[C@@H](CO)OCP(=O)(O)O)c(=O)n1 | cytopathic effect | - | Human cord blood lymphocytes | 0.22 µM

For reference, 2 entries again:

SMILES | read by | strain | cells | value
Nc1nc2c(ncn2C[C@]2(CO)C[C@H]2CO)c(=O)[nH]1 | - | - | Human cord blood lymphocytes | 0.65 µM
Nc1ncnc2c1ncn2CCOCP(=O)(O)O | cytopathic effect | GS | HSB-2 | 30 µM